Anti-infective test results gathered from many reports (values: NIAID ChemDB through PubChem).

Common to all: whole-cell or culture tests; organism: Aspergillus fumigatus; measure: MIC

Rows are shuffled and stem from different studies. An empty or dashed field is not shown.

| smiles | strain | value |
|---|---|---|
| Cc1ccc(C(C)C)cc1 | F07 | >20 µg/mL |
| C[C@@H](n1ccn(-c2ccc(OC(F)(F)F)cc2)c1=O)C(O)(Cn1cncn1)c1ccc(F)cc1F | TIMM1728 | 2 µg/mL |
| C[C@@H](SCCCCCCCC#N)[C@](O)(Cn1cncn1)c1ccc(F)cc1F | MTU6001 | ≤0.2 µg/mL |
| CCC(C)CC(C)CCCCCCCCC(=O)N[C@H]1C[C@@H](O)[C@H](NCCN)NC(=O)[C@@H]2[C@@H](O)CCN2C(=O)[C@H]([C@H](O)CCN)NC(=O)[C@H]([C@H](O)[C@@H](O)c2ccc(O)cc2)NC(=O)[C@@H]2C[C@@H](O)CN2C(=O)[C@H]([C@@H](C)O)NC1=O | 28 isolates | 0.25 µg/mL |
| CO[C@@H]1[C@H]2OC(C)(C)O[C@H]2O[C@@H]1C1=NOC(OC(C)=O)C1 |  | >50 µg/mL |
| CCC(C)CC(C)CCCCCCCCC(=O)N[C@H]1C[C@@H](O)[C@H](NCCN)NC(=O)[C@@H]2[C@@H](O)CCN2C(=O)[C@H]([C@H](O)CCN)NC(=O)[C@H]([C@H](O)[C@@H](O)c2ccc(O)cc2)NC(=O)[C@@H]2C[C@@H](O)CN2C(=O)[C@H]([C@@H](C)O)NC1=O | MF5668 | 0.06 µg/mL |
| CCOC(=O)c1sc2cc(-c3cccnc3)oc(=O)c2c1N | AF-27 | >100 µg/mL |
| CCC1C=C(c2ccc(C)cc2)C(=O)O1 | 231 | >125 µM |
| C[C@@H](N1CCN(c2ccc(OC(F)(F)C(F)F)cc2)C1=O)C(O)(Cn1cncn1)c1ccccc1F | 437 | 0.5 µg/mL |
| CCCCCCCCCCCCCCCC(=O)NC1CC(O)C(O)NC(=O)C2C(O)C(CO)CN2C(=O)C(CCC(N)=O)NC(=O)C(C(O)C(O)c2ccc(O)cc2)NC(=O)C2CC(O)CN2C(=O)C(C(C)O)NC1=O |  | >20 µg/mL |
| CCCCCCS[C@H](C)[C@](O)(Cn1cncn1)c1ccc(F)cc1F | MTU6001 | ≤0.2 µg/mL |
| CC1C=C(c2ccc(Cl)cc2Cl)C(=O)O1 | 231 | >125 µM |
| CCCCCCCCCCCCC(C)(O)C1CC(=O)NC(CO)C(=O)N[C@H](C)C(=O)NC(CC(=O)O)C(=O)NC(CC(N)=O)C(=O)NC(CC(N)=O)C(=O)NC(CO)C(=O)NC([C@@H](C)O)C(=O)O1 | TIMM0070 | 16 µg/mL |
| CO[C@@H]1[C@H]2OC(C)(C)O[C@H]2O[C@@H]1C1=NOC(C(C)=O)C1 |  | >50 µg/mL |
| CCCCCCCS(=O)(=O)[C@H](C)[C@](O)(Cn1cncn1)c1ccc(F)cc1F | MTU6001 | 3.13 µg/mL |
| Cc1cc(NS(=O)(=O)c2ccc(N)cc2)no1 | IFM 47450 | 32 µg/mL |
| Oc1ccc(C(=S)Nc2ccccc2)c(O)c1 |  | 125 µg/mL |
| CCCCCCS(=O)(=O)[C@H](C)[C@](O)(Cn1cncn1)c1ccc(F)cc1F | MTU6001 | 6.25 µg/mL |
| C[C@H]1[C@H](O)[C@@H](C)/C=C/C=C/C=C/C=C/C=C/C=C/C=C/[C@H](O[C@@H]2O[C@H](C)[C@@H](O)[C@H](N)[C@@H]2O)C[C@@H]2O[C@](O)(C[C@@H](O)C[C@@H](O)CC[C@H](O)[C@@H](O)C[C@@H](O)CC(=O)O[C@H]1C)C[C@H](O)[C@H]2C(=O)O | IAM2034 | 0.4 µg/mL |
| CCOC(=O)c1sc2cc(-c3cc(F)c(Cl)cc3Cl)oc(=O)c2c1N | AF-27 | >100 µg/mL |
| C[C@@H](N1CCN(c2ccc(OCC(F)(F)C(F)F)cc2)C1=O)C(O)(Cn1cncn1)c1ccc(F)cc1F | 437 | 0.5 µg/mL |
| COc1ccc(CC2CC([C@H]3O[C@@H]4OC(C)(C)O[C@@H]4[C@H]3OC)=NO2)cc1 |  | >50 µg/mL |
| C[C@@H](n1ccn(-c2ccc(C(F)(F)F)cc2)c1=O)C(O)(Cn1cncn1)c1ccc(F)cc1F | 437 | 4 µg/mL |
| O=C(Nc1c(F)cccc1F)OCCCN1CCN(c2nc3ccccc3s2)CC1 | CF1003 | 0.15 µg/mL |
| C[C@@H](n1ccn(-c2ccc(F)cc2)c1=O)C(O)(Cn1cncn1)c1ccc(F)cc1F | IFO6344 | 16 µg/mL |
| CCC(C)n1ncn(-c2ccc(N3CCN(c4ccc(OC[C@H]5CO[C@](Cn6cncn6)(c6ccc(Cl)cc6Cl)O5)cc4)CC3)cc2)c1=O | Clinical isolates | 1 µg/mL |
| CN[C@@H]1[C@H](O[C@@H]2OC[C@@H](O)[C@H](O)[C@H]2O)[C@@H](O)[C@H](O[C@H]2c3cc(C)c(C(=O)N[C@H](C)C(=O)O)c(O)c3-c3c(cc4c(c3O)C(=O)c3cc(OC)cc(O)c3C4=O)[C@@H]2O)O[C@@H]1C | IAM2034 | 1.6 µg/mL |
| Oc1ccc(C(=S)Nc2ccc(F)cc2F)c(O)c1 |  | 125 µg/mL |
| CCOC(=O)c1sc(SC)c(C#N)c1N | AF-27 | >100 µg/mL |
| CCCCCC1C=C(c2cccc(Cl)c2)C(=O)O1 | 231 | 31.25 µM |
| Oc1ccc(C(=S)Nc2ccccc2F)c(O)c1 |  | 125 µg/mL |
| Cc1ccc(C2=CC(C)OC2=O)cc1 | 231 | >125 µM |
| C[C@@H](n1ccn(-c2ccc(OC(F)(F)C(F)F)cc2)c1=O)C(O)(Cn1cncn1)c1ccc(F)cc1F | IFO6344 | 1 µg/mL |
| Cc1cc(NS(=O)(=O)c2ccc(N)cc2)nc(C)n1 | IFM 41362 | ≥256 µg/mL |
| Cc1ccc(NC(=S)c2ccc(O)cc2O)c(C)c1 |  | 62.5 µg/mL |
| Cc1noc(NS(=O)(=O)c2ccc(N)cc2)c1C | IFM 53412 | 128 µg/mL |
| CC1C=C(c2cccc3ccccc23)C(=O)O1 | 231 | >125 µM |
| CC1ON=C([C@H]2O[C@@H]3OC(C)(C)O[C@@H]3[C@H]2OCc2ccccc2)C1C(=O)O |  | >50 µg/mL |
| CCC1C=C(c2cccc(Cl)c2)C(=O)O1 | 231 | 62.5 µM |
| Nc1ccc(S(=O)(=O)Nc2ccnn2-c2ccccc2)cc1 | IFM 48051 | 64 µg/mL |
| CCOC(=O)c1sc(SC)c(C#N)c1O | AF-27 | >100 µg/mL |
| CCCCCOc1ccc(-c2ccc(-c3ccc(C(=O)N[C@H]4C[C@@H](O)[C@@H](O)NC(=O)[C@@H]5[C@@H](O)[C@@H](C)CN5C(=O)[C@H]([C@H](C)O)NC(=O)[C@H]([C@H](O)[C@@H](O)c5ccc(O)cc5)NC(=O)[C@@H]5C[C@@H](O)CN5C(=O)[C@H]([C@H](C)O)NC4=O)cc3)cc2)cc1 | 92-270 | >50 µg/mL |
| O=C(O)CNC(=O)c1ccc(NC(=S)c2ccc(O)cc2O)cc1 |  | >250 µg/mL |
| CC1C=C(c2ccc(F)c(F)c2)C(=O)O1 | 231 | 125 µM |
| CCOC(=O)c1sc2cc(-c3ccc(Br)cc3)oc(=O)c2c1N | AF-27 | >100 µg/mL |
| O=C(N/N=C/c1cc([N+](=O)[O-])ccc1O)c1ccc(I)cc1 | 293 | 0.4 µg/mL |
| CC1(C)O[C@H]2O[C@H](C3=NOC(CO)C3)[C@H](OCc3ccccc3)[C@H]2O1 |  | >50 µg/mL |
| Oc1cccc(NC(=S)c2ccc(O)cc2O)c1 |  | 125 µg/mL |
| C[C@H]1[C@H](O)[C@@H](C)/C=C/C=C/C=C/C=C/C=C/C=C/C=C/[C@H](O[C@@H]2O[C@H](C)[C@@H](O)[C@H](N)[C@@H]2O)C[C@@H]2O[C@](O)(C[C@@H](O)C[C@@H](O)CC[C@H](O)[C@@H](O)C[C@@H](O)CC(=O)O[C@H]1C)C[C@H](O)[C@H]2C(=O)O | 48238 | 0.13 µg/mL |
| CC1(C)O[C@H]2[C@@H](O1)[C@@H](C1=NOC(CO)C1)O[C@@H]1OC(C)(C)O[C@@H]12 |  | >50 µg/mL |
| CCCS[C@H](C)[C@](O)(Cn1cncn1)c1ccc(F)cc1F | MTU6001 | 0.78 µg/mL |
| CC(=O)C1CC([C@H]2O[C@@H]3OC(C)(C)O[C@@H]3[C@H]2OCc2ccccc2)=NO1 |  | >50 µg/mL |
| CCCCCCCCS(=O)(=O)[C@H](C)[C@](O)(Cn1cncn1)c1ccc(F)cc1F | MTU6001 | 0.78 µg/mL |
| CCOC(=O)C1CC([C@H]2O[C@@H]3OC(C)(C)O[C@@H]3[C@H]2OC)=NO1 |  | >50 µg/mL |
| CC(=O)c1ccc(NC(=S)c2ccc(O)cc2O)cc1 |  | >500 µg/mL |

Repeating the first 5 entries:

{"smiles": "Cc1ccc(C(C)C)cc1", "strain": "F07", "value": ">20 µg/mL"}
{"smiles": "C[C@@H](n1ccn(-c2ccc(OC(F)(F)F)cc2)c1=O)C(O)(Cn1cncn1)c1ccc(F)cc1F", "strain": "TIMM1728", "value": "2 µg/mL"}
{"smiles": "C[C@@H](SCCCCCCCC#N)[C@](O)(Cn1cncn1)c1ccc(F)cc1F", "strain": "MTU6001", "value": "≤0.2 µg/mL"}
{"smiles": "CCC(C)CC(C)CCCCCCCCC(=O)N[C@H]1C[C@@H](O)[C@H](NCCN)NC(=O)[C@@H]2[C@@H](O)CCN2C(=O)[C@H]([C@H](O)CCN)NC(=O)[C@H]([C@H](O)[C@@H](O)c2ccc(O)cc2)NC(=O)[C@@H]2C[C@@H](O)CN2C(=O)[C@H]([C@@H](C)O)NC1=O", "strain": "28 isolates", "value": "0.25 µg/mL"}
{"smiles": "CO[C@@H]1[C@H]2OC(C)(C)O[C@H]2O[C@@H]1C1=NOC(OC(C)=O)C1", "value": ">50 µg/mL"}